# From publication PMC11982464, “Structural insight into the catalytic mechanism of the bifunctional enzyme L-fucokinase/GDP-fucose pyrophosphorylase” (The Journal of Biological Chemistry, 2025)
# Test system: C[C@@H]1O[C@H](OP(=O)(O)O)[C@@H](O)[C@H](O)[C@@H]1O
# Experiment: purified protein
# Settings: GDP-fucose pyrophosphorylase site, co-substrate GTP, 50 mM Hepes pH 7.5, 2 mM MgCl2
Substance,Km [µM],kcat [s⁻¹],kcat/Km [M⁻¹ s⁻¹]
"FKP-FL (L-fucokinase/GDP-β-L-fucose pyrophosphorylase, full length) (Bacteroides fragilis; D31A)",81 ± 9,–,–
"FKP-FL (L-fucokinase/GDP-β-L-fucose pyrophosphorylase, full length) (Bacteroides fragilis; H73A)",50 ± 7,0.32,6400
"FKP-FL (L-fucokinase/GDP-β-L-fucose pyrophosphorylase, full length) (Bacteroides fragilis; H168A)",720 ± 130,0.027,38
"FKP-FL (L-fucokinase/GDP-β-L-fucose pyrophosphorylase, full length) (Bacteroides fragilis; H272A)",530 ± 82,0.034,64
"FKP-FL (L-fucokinase/GDP-β-L-fucose pyrophosphorylase, full length) (Bacteroides fragilis; K187A)",1200 ± 200,0.15,130
"FKP-FL (L-fucokinase/GDP-β-L-fucose pyrophosphorylase, full length) (Bacteroides fragilis; R80A)",200 ± 19,0.012,62

# Test system: Nc1ncnc2c1ncn2[C@@H]1O[C@H](COP(=O)(O)OP(=O)(O)OP(=O)(O)O)[C@@H](O)[C@H]1O
# Experiment: purified protein
# Settings: fucokinase site, Hill fit, co-substrate L-fucose, 50 mM Hepes pH 7.5, 2 mM MnCl2
Substance,Km [µM],kcat [s⁻¹],kcat/Km [M⁻¹ s⁻¹]
"FKP-FL (L-fucokinase/GDP-β-L-fucose pyrophosphorylase, full length) (Bacteroides fragilis; D601A)",3400 ± 500,0.26,80
"FKP-FL (L-fucokinase/GDP-β-L-fucose pyrophosphorylase, full length) (Bacteroides fragilis; W599A)",920 ± 200,0.28,300
